Data source: PubChem BioAssay AID624099 (ICCB-Longwood, 2012)

Screen: 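Host factors E2 relies on to silence an HPV18 LCR reporter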 (primary screen)
Cells: human C33A cervical carcinoma cells (HPV-negative) stably expressing BPV1 E2 and an HPV18 LCR luciferase reporter
Reagent: siRNA pool against human genes, 40 nM
Timing: 72 h
Measured: 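HPV18 LCR reporter light per well, converted to plate-wise z-scores that exclude control wells, and averaged over triplicate plates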
Direction: mean z-score and z-score: higher = stronger reporter signal, weaker E2 silencing
Rule for the call: 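Mean z ≥ 2 together with z ≥ 2 in two or more of the three replicates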
The whole screen tested about 21,000 reagents; this is a part drawn at random. Over the whole deposit, 497 (2.4%) are marked active. 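Higher z means weaker E2 silencing; only reporter increases were scored, and knock-downs that hurt cell survival may mask genuine repressor factors.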 A number with no mark means an inactive call. Reagents against one gene are numbered here. No sequences are given here.

Knock-down of LINC00965 (long independently transcribed non-coding RNA 965) gave: mean z-score 0.43; z-score, replicate A = 0.4; z-score, replicate B = 0.39; z-score, replicate C = 0.51.
OR4N2 (olfactory receptor family 4 subfamily N member 2) gave mean z-score -0.27; z-score, replicate A = -0.56; z-score, replicate B = 0.06; z-score, replicate C = -0.29.
ITGA3 (integrin subunit alpha 3) showed mean z-score 2.42 (active); z-score, replicate A = 2.36; z-score, replicate B = 2.37; z-score, replicate C = 2.53.
For ADGRF1 (adhesion G protein-coupled receptor F1) #1, the values are mean z-score 1.21; z-score, replicate A = 1.13; z-score, replicate B = 1.12; z-score, replicate C = 1.37.
With knock-down of ADGRF1 (adhesion G protein-coupled receptor F1) #2 the results were mean z-score -0.41; z-score, replicate A = -0.33; z-score, replicate B = -0.43; z-score, replicate C = -0.46.
Knock-down of YBEY (ybeY metalloendoribonuclease) came out at: mean z-score -0.31; z-score, replicate A = -0.08; z-score, replicate B = -0.28; z-score, replicate C = -0.56.

A few values from the entries so far:
For “z-score, replicate A”, ITGA3 (integrin subunit alpha 3) reads 2.36 (active)
ADGRF1 (adhesion G protein-coupled receptor F1) #1, z-score, replicate C → 1.37

More reagents follow:
After knock-down of ARFRP1 (ARF related protein 1), the record shows mean z-score 0.89; z-score, replicate A = 0.85; z-score, replicate B = 1.03; z-score, replicate C = 0.79.
TSACC (TSSK6 activating cochaperone) scored mean z-score -0.21; z-score, replicate A = -0.22; z-score, replicate B = -0.16; z-score, replicate C = -0.24.
With knock-down of KATNAL1 (katanin catalytic subunit A1 like 1) the results were mean z-score 0.29; z-score, replicate A = 0.02; z-score, replicate B = 0.53; z-score, replicate C = 0.33.
Against ARHGAP17 (Rho GTPase activating protein 17), the values are mean z-score -0.96; z-score, replicate A = -1.14; z-score, replicate B = -1.12; z-score, replicate C = -0.61.
SUSD2 (sushi domain containing 2) scored mean z-score 0.44; z-score, replicate A = 0.39; z-score, replicate B = 0.5; z-score, replicate C = 0.44.
TXNDC16 (thioredoxin domain containing 16) scored mean z-score 1.2; z-score, replicate A = 1.04; z-score, replicate B = 1.25; z-score, replicate C = 1.31.
Depletion of CEP83 (centrosomal protein 83) gave: mean z-score 0.9; z-score, replicate A = 0.63; z-score, replicate B = 1.08; z-score, replicate C = 1.
TRAPPC8 (trafficking protein particle complex subunit 8) showed mean z-score -1.4; z-score, replicate A = -1.45; z-score, replicate B = -1.45; z-score, replicate C = -1.3.
